A mixed list of measured activities; the numbers were collected in NIAID ChemDB.

Shared fields: growth or infection tests; species: HIV-1

ECn is the concentration giving n% inhibition of infection, replication or growth. Rows are shuffled and stem from different studies. An empty or dashed field is not shown.

C/C=C1/[C@H](O[C@@H]2O[C@H](CO)[C@@H](O)[C@H](O)[C@H]2O)OC=C(C(=O)OC)[C@H]1CC(=O)OCCc1ccc(O)c(O)c1 ; strain: IIIB ; cells: H9 ; measure: EC50 ; method: p24 ; value: 0.073 µM
CCC[C@@]1(CCc2ccccc2)CC(O)=C([C@H](CC)c2cccc(NS(=O)(=O)c3ccc(C(F)(F)F)cn3)c2)C(=O)O1 ; strain: 14aPre WT ; cells: PBMC ; measure: EC50 ; method: p24 ; value: 0.06 µM
CC(C)C[C@H](N)C(=O)O.[Na+] ; strain: NL4-3 ; measure: EC50 ; method: luciferase ; value: 0.22 µM
CCOC(=O)COc1ccc(C[C@H](C[C@H](O)[C@H](Cc2ccccc2)NC(=O)OC(C)(C)C)C(=O)N[C@H]2c3ccccc3C[C@H]2O)cc1 ; strain: IIIB ; cells: MT-4 ; measure: EC50 ; method: cytopathic effect / MTT ; value: 0.16 µM
COc1cc([C@@H]2c3cc4c(cc3C[C@H]3COC(=O)[C@@H]32)OCO4)cc(OC)c1OC ; strain: IIIB ; cells: MT-2 ; measure: EC50 ; method: XTT ; value: >0.00065 µg/mL
Cc1cccc(C)c1OCC(=O)N[C@@H](Cc1ccccc1)[C@@H](O)C[C@H](Cc1ccccc1)NC(=O)[C@H](C(C)C)N1CCCNC1=O ; strain: 14aPre WT ; cells: PBMC ; measure: EC50 ; method: p24 ; value: 0.002 µM
Cc1ccncc1-c1ccc(C[C@H](C[C@H](O)CN2CCN(Cc3ccc(-c4ccc(Cl)cc4)s3)C[C@H]2C(=O)NCC(F)(F)F)C(=O)N[C@H]2c3ccccc3OC[C@H]2O)o1 ; strain: NL4-3 ; cells: MT-4 ; measure: EC95 ; method: p24 ; value: <0.0078 µM
CCCc1cc(=O)oc2c3c(c4c(c12)OC(C)(C)C=C4)O[C@H](C(C)C)[C@H](C)[C@@H]3O ; strain: RF ; cells: CEM + CEM-SS ; measure: EC50 ; method: cytopathic effect / XTT ; value: >100 µM
CC[C@H](C)[C@H](N)C(=O)O.[Na+] ; strain: IIIB ; measure: EC50 ; method: luciferase ; value: 0.52 µM
CCOCn1c(SC)nc(CC)c1Cc1ccccc1 ; strain: IIIB ; cells: MT-4 ; measure: EC50 ; method: cytopathic effect / MTT ; value: >100 µM
Nc1nncc2c([C@H]3CC[C@@H](/C=C/P(=O)(O)O)C3(F)F)c[nH]c12 ; strain: LAI ; cells: PBMC ; measure: EC50 ; value: 34.3 µM
O=C(N[C@H]1c2ccccc2OC[C@H]1O)[C@H](Cc1cc2cnccc2s1)C[C@H](O)CN1CCN(Cc2csc(-c3ccc(C(F)(F)F)cc3)n2)C[C@H]1C(=O)NCC(F)(F)F ; strain: NL4-3 ; cells: MT-4 ; measure: EC50 ; method: p24 ; value: <0.026 µM
COc1cc([C@@H]2c3cc4c(cc3[C@H](O)[C@H]3COC(=O)[C@@H]23)OCO4)cc(OC)c1O ; strain: IIIB ; cells: MT-2 ; measure: EC50 ; method: XTT ; value: >0.01 µg/mL
Cc1cn([C@H]2C[C@H](N=[N+]=[N-])[C@@H](CO)O2)c(=O)[nH]c1=O ; strain: IIIB ; cells: MT-4 ; measure: EC50 ; method: cytopathic effect / MTT ; value: 0.01 µM
C[C@]12CC[C@H](O)CC1=CC[C@@H]1[C@@H]2CC[C@]2(C)C(=O)CC[C@@H]12 ; strain: IIIB ; cells: MT-2 ; measure: EC50 ; method: RT activity ; value: 50 µM
CC(C)(c1ncc(-c2ccc(Cl)cc2)o1)N1CCN(C[C@@H](O)C[C@@H](Cc2cc3c(Cl)cncc3s2)C(=O)N[C@H]2c3ccccc3OC[C@H]2O)[C@H](C(=O)NCC(F)(F)F)C1 ; strain: 4X (PR M46I L63P V82T I84V) ; cells: MT-4 ; changes: PR-M46I L63P V82T I84V ; measure: EC95 ; method: p24 ; value: <0.0078 µM
CC(C)(C)OC(=O)N[C@@H](Cc1ccccc1)[C@@H](O)C[C@@H](Cc1ccc(OCc2nn[nH]n2)cc1)C(=O)N[C@H]1c2ccccc2C[C@H]1O ; strain: IIIB ; cells: MT-4 ; measure: EC50 ; method: cytopathic effect / MTT ; value: >10 µM
Cc1cn([C@H]2C[C@H](N=[N+]=[N-])[C@@H](CO)O2)c(=O)[nH]c1=O ; strain: SK1 ; cells: CEM + CEM-SS ; measure: EC50 ; method: cytopathic effect / XTT ; value: 0.005 µM
CC(C)CN(C[C@@H](O)[C@H](Cc1ccccc1)NC(=O)[C@@H](NC(=O)CNCc1cccc(F)c1)C(C)(C)C)S(=O)(=O)c1cccc(N)c1 ; strain: NL4-3 ; cells: PBMC ; measure: EC90 ; method: p24 ; value: 0.0065 µM
O=C(N[C@H]1c2ccccc2OC[C@H]1O)[C@H](Cc1cc2ccncc2o1)C[C@H](O)CN1CCN(Cc2ccc(-c3ccc(Cl)cc3)o2)C[C@H]1C(=O)NCC(F)(F)F ; strain: NL4-3 ; cells: MT-4 ; measure: EC95 ; method: p24 ; value: <0.0078 µM
COc1cc([C@@H]2c3cc4c(cc3[C@@H](O[C@@H]3O[C@@H]5CO[C@@H](C)O[C@H]5[C@H](O)[C@H]3O)[C@H]3COC(=O)[C@H]23)OCO4)cc(OC)c1O ; strain: IIIB ; cells: MT-2 ; measure: EC50 ; method: XTT ; value: 0.06 µg/mL
CCC(=O)c1ccc(F)c([C@H]2C[C@H]2NC(=O)Nc2ccc(Br)cn2)c1O ; cells: PBMC ; measure: EC50 ; method: p24 / ELISA ; value: 0.006 µM
CC1=CC2=C(C(C)C)C(O)C(=O)/C(=C\N[C@H](C)C(=O)O)C2C(O)=C1c1c(C)cc2c(C(C)C)c(O)c(O)c(C=N[C@@H](C)C(=O)O)c2c1O.[Na+].[Na+] ; strain: IIIB ; cells: TZM-bl ; measure: EC50 ; method: p24 / ELISA / antigen ; value: 0.36 µM
Nc1nncc2c([C@H]3CC[C@@H](CCP(=O)(O)O)C3(F)F)c[nH]c12 ; strain: LAI ; cells: PBMC ; measure: EC50 ; value: 17.8 µM
O=C(N[C@H]1c2ccccc2OC[C@H]1O)[C@H](Cc1cc2cnccc2s1)C[C@H](O)CN1CCN(Cc2ccc(-c3ccc(Cl)cc3)o2)C[C@H]1C(=O)NCC(F)(F)F ; strain: 4X (PR M46I L63P V82T I84V) ; cells: MT-4 ; changes: PR-M46I L63P V82T I84V ; measure: EC50 ; method: p24 ; value: <0.0156 µM
Cc1cc2c(C(C)C)c(O)c(O)c(C=O)c2c(O)c1-c1c(C)cc2c(C(C)C)c(O)c(O)c(C=O)c2c1O ; strain: NL4-3 ; cells: TZM-bl ; measure: EC50 ; method: luciferase / reporter gene ; value: 0.64 µM
CC(C)(c1ncc(-c2ccc(Cl)cc2)s1)N1CCN(C[C@@H](O)C[C@@H](Cc2cc3cnccc3s2)C(=O)N[C@H]2c3ccccc3OC[C@H]2O)[C@H](C(=O)NCC(F)(F)F)C1 ; strain: 4X (PR M46I L63P V82T I84V) ; cells: MT-4 ; changes: PR-M46I L63P V82T I84V ; measure: EC95 ; method: p24 ; value: <0.0078 µM
Cc1cn([C@H]2C[C@H](N=[N+]=[N-])[C@@H](CO)O2)c(=O)[nH]c1=O ; strain: NL4-3 ; cells: MT-4 ; measure: EC50 ; method: MTT / absorbance ; value: 0.063 µM
CC(C)[C@H](N)C(=O)O.[Na+] ; strain: NL4-3 ; measure: EC50 ; method: luciferase ; value: 0.17 µM
CCCCCCCCCCCCCCCCCC(=O)N[C@@H](CO[C@@H]1O[C@H](CO)C(O)[C@H](O)[C@H]1NC(C)=O)C(=O)NCCCCCCCCCCCCCC ; cells: MT-4 ; measure: EC50 ; method: antigen ; value: >100 µM
COc1cc([C@@H]2c3cc4c(cc3[C@H](O)[C@H]3COC(=O)[C@@H]23)OCO4)cc(OC)c1OC ; strain: IIIB ; cells: MT-2 ; measure: EC50 ; method: XTT ; value: >0.01 µg/mL
c1cc(CN2CCCNCCNCCCNCC2)ccc1CN1CCCNCCNCCCNCC1 ; strain: NL4-3 ; cells: MT-4 ; measure: EC50 ; method: MTT ; value: 0.032 µM
CC1(C)CCC[C@]2(C)[C@@H](c3ccoc3)C(=O)[C@@H]3O[C@]312 ; strain: RF ; cells: CEM + CEM-SS ; measure: EC50 ; method: cytopathic effect / XTT ; value: 42.1 µM

Again, the opening 3 rows:

structure	strain	cells	changes	measure	method	value
C/C=C1/[C@H](O[C@@H]2O[C@H](CO)[C@@H](O)[C@H](O)[C@H]2O)OC=C(C(=O)OC)[C@H]1CC(=O)OCCc1ccc(O)c(O)c1	IIIB	H9	-	EC50	p24	0.073 µM
CCC[C@@]1(CCc2ccccc2)CC(O)=C([C@H](CC)c2cccc(NS(=O)(=O)c3ccc(C(F)(F)F)cn3)c2)C(=O)O1	14aPre WT	PBMC	-	EC50	p24	0.06 µM
CC(C)C[C@H](N)C(=O)O.[Na+]	NL4-3	-	-	EC50	luciferase	0.22 µM